The series can be described thus: activity coefficient (dimensionless); xn = mol fraction of the nth substance listed. Particulars: 101.33 kPa, Liquid, Chromatography, x1 = 0.

Numbers after ± are expanded uncertainties.

Turning to `C=CCCC` [1-pentene] + CCCCCCCC[N+](CC)(CC)CC.O=S(=O)(F)[N-]S(=O)(=O)F, the activity coefficient (318.15 K) amounted to 4.01 ± 0.27; the activity coefficient (328.15 K) was determined as 4.08 ± 0.28; the activity coefficient (338.15 K) is 4.13 ± 0.28; the activity coefficient (348.15 K) stood at 4.2 ± 0.29; the activity coefficient (358.15 K) came out at 4.25 ± 0.29; the activity coefficient (368.15 K) came out at 4.31 ± 0.29.

Turning to `C#CCCC` [1-pentyne] + CCCC[N+]1(C)CCCC1.O=S(=O)(F)[N-]S(=O)(=O)F, the activity coefficient amounted to 2.6 ± 0.18 (318.15 K); 2.75 ± 0.19 (328.15 K); 2.9 ± 0.2 (338.15 K); 3.06 ± 0.21 (348.15 K); 3.22 ± 0.22 (358.15 K); 3.37 ± 0.23 (368.15 K).

Consider `C#CCCCCC` [1-heptyne] + CCCC[N+]1(C)CCCC1.O=S(=O)(F)[N-]S(=O)(=O)F, for which the activity coefficient (318.15 K) was determined as 5.17 ± 0.35; the activity coefficient (328.15 K) was 5.4 ± 0.37; the activity coefficient (338.15 K) came to 5.63 ± 0.38; the activity coefficient (348.15 K) was found to be 5.86 ± 0.4; the activity coefficient (358.15 K) is 6.08 ± 0.41; the activity coefficient (368.15 K) stood at 6.31 ± 0.43.

On to `C#CCCCC` [1-hexyne] + CCCC[N+]1(C)CCCC1.O=S(=O)(F)[N-]S(=O)(=O)F, for which the activity coefficient came out at 3.58 ± 0.24 (318.15 K); 3.79 ± 0.26 (328.15 K); 3.98 ± 0.27 (338.15 K); 4.19 ± 0.29 (348.15 K); 4.39 ± 0.3 (358.15 K); 4.59 ± 0.31 (368.15 K).

`CCCOCCC` [dipropyl ether] + CCCCCCCC[N+](CC)(CC)CC.O=S(=O)(F)[N-]S(=O)(=O)F: the activity coefficient (318.15 K) came out at 4.03 ± 0.27; the activity coefficient (328.15 K) worked out at 4.14 ± 0.28; the activity coefficient (338.15 K) is 4.24 ± 0.29; the activity coefficient (348.15 K) amounted to 4.34 ± 0.3; the activity coefficient (358.15 K) worked out at 4.42 ± 0.3; the activity coefficient (368.15 K) stood at 4.53 ± 0.31.

As for `CC(C)OC(C)C` [diisopropyl ether] + CCCCCCCC[N+](CC)(CC)CC.O=S(=O)(F)[N-]S(=O)(=O)F, the activity coefficient came to 4.49 ± 0.31 (318.15 K); 4.61 ± 0.31 (328.15 K); 4.72 ± 0.32 (338.15 K); 4.84 ± 0.33 (348.15 K); 4.93 ± 0.34 (358.15 K); 5.05 ± 0.34 (368.15 K).

Regarding `c1ccsc1` [thiophene] + CCCC[N+]1(C)CCCC1.O=S(=O)(F)[N-]S(=O)(=O)F, the activity coefficient by setting is: (318.15 K) 0.844 ± 0.054; (328.15 K) 0.9 ± 0.057; (338.15 K) 0.958 ± 0.06; (348.15 K) 1.02 ± 0.06; (358.15 K) 1.08 ± 0.07; (368.15 K) 1.13 ± 0.07.

Consider `CCCC(C)=O` [pentan-2-one] + CCCCCCCC[N+](CC)(CC)CC.O=S(=O)(F)[N-]S(=O)(=O)F, for which the activity coefficient was 0.664 ± 0.045 (318.15 K); 0.706 ± 0.047 (328.15 K); 0.748 ± 0.049 (338.15 K); 0.789 ± 0.051 (348.15 K); 0.83 ± 0.053 (358.15 K); 0.871 ± 0.056 (368.15 K).

Values taken from the NIST ThermoML archive (doi:10.1016/j.jct.2018.07.024).
